A mixed list of measured activities; the numbers were collected in NIAID ChemDB.

Common to all: growth or infection tests; species: Cryptococcus neoformans; read-out: MIC

An empty or dashed field is not shown.

{"smiles": "C1CCC(C[C@@H]2CN3C(=NC[C@@H]3C3CCCCC3)N2CCC23CC4CC(CC(C4)C2)C3)CC1", "strain or isolate": "ATCC 32045", "result": "3–4 µg/mL"}
{"smiles": "N#CC(C#N)C(CC(=O)c1ccccc1)c1ccc2ccccc2c1", "strain or isolate": "ATCC 32264", "result": ">50 µg/mL"}
{"smiles": "CC(C)(C)C1CCC(CN2C3=NC[C@H](CC4CCCCC4)N3C[C@H]2C2CCCCC2)CC1", "strain or isolate": "ATCC 32045", "result": "8–16 µg/mL"}
{"smiles": "COc1cccc(C(CC(=O)c2ccccc2)C(C#N)C#N)c1OC", "strain or isolate": "ATCC 32264", "result": ">50 µg/mL"}
{"smiles": "O=[N+]([O-])c1ccc2c(c1)CCc1snnc1-2", "result": "12.5 µg/mL"}
{"smiles": "CCN1C2=NC[C@H](Cc3ccccc3)N2C[C@H]1C1CCCCC1", "strain or isolate": "ATCC 32045", "result": "62–125 µg/mL"}
{"smiles": "O=C(/C=C/c1ccc(Cl)cc1Cl)c1ccccc1", "strain or isolate": "ATCC 32264", "result": ">50 µg/mL"}
{"smiles": "C1CCC(C[C@@H]2CN3C(=NC[C@H]3C3CCCCC3)N2CCC23CC4CC(CC(C4)C2)C3)CC1", "strain or isolate": "ATCC 32045", "result": "16–32 µg/mL"}
{"smiles": "COC(=O)C(C(=O)OC)C(CC(=O)c1ccccc1)c1ccccc1", "strain or isolate": "ATCC 32264", "result": ">50 µg/mL"}
{"smiles": "CC(C)(C)C1CCC(CN2C3=NC[C@H](CC4CCCCC4)N3C[C@@H]2CC2CCCCC2)CC1", "strain or isolate": "ATCC 32045", "result": "8–16 µg/mL"}
{"smiles": "COc1cc(O)c2c(c1)C(=O)c1c(cc3c(c1O)-c1c(cc(C)c(C(=O)NC(C)C(=O)O)c1O)[C@H](OC1OC(C)C(F)CC1OC1OCC(O)C(O)C1O)[C@H]3O)C2=O", "strain or isolate": "IAM 4514", "result": ">100 µg/mL"}
{"smiles": "COc1cc(O)c2c(c1)C(=O)c1c(cc3c(c1O)-c1c(cc(C)c(C(=O)N[C@H](CO)C(=O)O)c1O)[C@H](O[C@@H]1O[C@H](C)[C@H](O)[C@H](O)[C@H]1O)[C@H]3O)C2=O", "strain or isolate": "IAM 4514", "result": "3.1 µg/mL"}
{"smiles": "O=C(/C=C/c1ccc([N+](=O)[O-])cc1)c1ccccc1", "strain or isolate": "ATCC 32264", "result": ">50 µg/mL"}
{"smiles": "O=[N+]([O-])c1ccc(CNC2CCc3c(O)cccc3C2)cc1", "result": ">64 µM"}
{"smiles": "CNC1C(C)OC(O[C@H]2c3cc(C)c(C(=O)NC(C)C(=O)OC)c(O)c3-c3c(cc4c(c3O)C(=O)c3cc(OC)cc(O)c3C4=O)[C@@H]2O)C(O)C1OC1OC(CO)C(O)C(O)C1F", "strain or isolate": "IAM 4514", "result": "3.1 µg/mL"}
{"smiles": "CC(C)C[C@@H]1CN2C(=NC[C@@H]2C2CCCCC2)N1CCC12CC3CC(CC(C3)C1)C2", "strain or isolate": "ATCC 32045", "result": "5–8 µg/mL"}
{"smiles": "COc1ccc(/C=C/C(=O)c2ccccc2)cc1OC", "strain or isolate": "ATCC 32264", "result": ">50 µg/mL"}
{"smiles": "O=[N+]([O-])c1cccc2c1CCc1snnc1-2", "result": "3.12 µg/mL"}
{"smiles": "CNC1C(C)OC(O[C@H]2c3cc(C)c(C(=O)NC(C)C(=O)OC)c(O)c3-c3c(cc4c(c3O)C(=O)c3cc(OC)cc(O)c3C4=O)[C@@H]2O)C(O)C1OC1OC(CO)C(O)C1O", "strain or isolate": "IAM 4514", "result": "6.3 µg/mL"}
{"smiles": "C(=C\\c1ccccc1)/CN(Cc1cccc2ccccc12)n1cncn1", "result": ">200 µM"}
{"smiles": "O=[N+]([O-])c1cccc2c1CCc1[se]nnc1-2", "result": "25 µg/mL"}
{"smiles": "COc1cc(O)c2c(c1)C(=O)c1c(cc3c(c1O)-c1c(cc(C)c(C(=O)NC(C)C(=O)O)c1O)[C@H](OC1OC(C)C(O)C1O)[C@H]3O)C2=O", "strain or isolate": "IAM 4514", "result": ">100 µg/mL"}
{"smiles": "CC(C)(C)c1ccc(CN(Cc2cccc3ccccc23)N2C=NNC2)cc1", "result": ">200 µM"}
{"smiles": "CN[C@@H]1[C@H](O[C@@H]2OC[C@@H](O)[C@H](O)[C@H]2O)[C@@H](O)[C@H](O[C@H]2c3cc(C)c(C(=O)N[C@H](C)C(=O)O)c(O)c3-c3c(cc4c(c3O)C(=O)c3cc(OC)cc(O)c3C4=O)[C@@H]2O)O[C@@H]1C", "strain or isolate": "IAM 4514", "result": "1.6 µg/mL"}
{"smiles": "CC(C)(C)C1CCC(CN2C3=NC[C@@H](CC4CCCCC4)N3C[C@@H]2C2CCCCC2)CC1", "strain or isolate": "ATCC 32045", "result": "8–16 µg/mL"}
{"smiles": "COc1ccc(C(=O)/C=C/c2cc3cc(OC)c(OC)cc3nc2Cl)cc1OC", "strain or isolate": "ATCC 32264", "result": ">50 µg/mL"}
{"smiles": "C1CCC(C[C@H]2CN=C3N2C[C@H](C2CCCCC2)N3CCC23CC4CC(CC(C4)C2)C3)CC1", "strain or isolate": "ATCC 32045", "result": "16–32 µg/mL"}
{"smiles": "CN[C@H]1[C@@H](O[C@@H]2O[C@H](CO)[C@@H](O)[C@H](O)[C@H]2O)[C@H](O)[C@@H](O[C@H]2c3cc(C)c(C(=O)N[C@H](C)C(=O)OC)c(O)c3-c3c(cc4c(c3O)C(=O)c3cc(OC)cc(O)c3C4=O)[C@@H]2O)O[C@H]1C", "strain or isolate": "IAM 4514", "result": "3.1 µg/mL"}
{"smiles": "C1CCC(C[C@H]2CN=C3N2C[C@@H](C2CCCCC2)N3CCC23CC4CC(CC(C4)C2)C3)CC1", "strain or isolate": "ATCC 32045", "result": "8–16 µg/mL"}
{"smiles": "COc1cc(O)c2c(c1)C(=O)c1c(cc3c(c1O)-c1c(cc(C)c(C(=O)NC(C)C(=O)O)c1O)[C@H](OC1OC(C)C(N(C)C)C(OC(CO)OCCO)C1O)[C@H]3O)C2=O", "strain or isolate": "IAM 4514", "result": "1.6 µg/mL"}
{"smiles": "CC(C)(C)c1ccc(CN(Cc2cccc3ccccc23)n2cnnc2)cc1", "result": ">200 µM"}

The last 3 rows once more:

smiles | strain or isolate | result
C1CCC(C[C@H]2CN=C3N2C[C@@H](C2CCCCC2)N3CCC23CC4CC(CC(C4)C2)C3)CC1 | ATCC 32045 | 8–16 µg/mL
COc1cc(O)c2c(c1)C(=O)c1c(cc3c(c1O)-c1c(cc(C)c(C(=O)NC(C)C(=O)O)c1O)[C@H](OC1OC(C)C(N(C)C)C(OC(CO)OCCO)C1O)[C@H]3O)C2=O | IAM 4514 | 1.6 µg/mL
CC(C)(C)c1ccc(CN(Cc2cccc3ccccc23)n2cnnc2)cc1 | - | >200 µM

Neighbouring rows are from separate reports. a–b is a range or a potency band.